Compound potency records, mixed from different reports. Data source: NIAID ChemDB in PubChem.

Shared fields: toxicity to cultured cells; cell line: CEM; read-out: CC50

Neighbouring rows are from separate reports. CCn: concentration that lowers growth or viability of the cells by n%. Blank or dashed fields: not listed here.

SMILES,read by,value
Cc1cn([C@@H]2O[C@H](CO[Si](C)(C)C(C)(C)C)[C@@]3(OS(=O)(=O)C=C3N)[C@H]2O[Si](C)(C)C(C)(C)C)c(=O)[nH]c1=O,,16 µM
Cn1cnc2ncn([C@@H]3O[C@H](CO[Si](C)(C)C(C)(C)C)C4(OS(=O)(=O)C=C4N)[C@H]3O[Si](C)(C)C(C)(C)C)c2c1=O,,15 µg/mL
COC(=O)CSc1cc(Cl)c(C)cc1S(=O)(=O)Nc1n[nH]c(N)n1,,>200 µM
CCc1cn([C@@H]2O[C@H](CO[Si](C)(C)C(C)(C)C)[C@@H](O)[C@H]2O[Si](C)(C)C(C)(C)C)c(=O)n(CC(=O)O)c1=O,,20 µM
Cc1cc(NCCc2c[nH]c3ccccc23)cc(=O)o1,MTT,121 µM
CC1(C)S[C@H]([C@H](NC(=O)Cc2ccccc2)C(=O)NCc2ccccc2)N[C@H]1C(=O)NCCNC(=O)[C@@H]1N[C@@H]([C@H](NC(=O)Cc2ccccc2)C(=O)NCc2ccccc2)SC1(C)C,,>100 µM
O=S(=O)(Nc1nnc2n1-c1ccccc1CC2)c1ccc(Cl)cc1S,,91.3 µM
Cc1cn([C@@H]2O[C@H](CO[Si](C)(C)C(C)(C)C)[C@@H](O)[C@H]2O[Si](C)(C)C(C)(C)C)c(=O)n(CC#N)c1=O,,21 µM
Cc1cn([C@H]2C=C[C@@H](CO)O2)c(=O)[nH]c1=O,MTT,268 µM
Cc1cc(SC2=C(O)C[C@](CCc3ccc(O)cc3)(C(C)C)OC2=O)c(C(C)(C)C)cc1N,,211 µM
O=Cc1ccccc1B(O)O,MTT,91 µM
COP(=O)(C[C@H](NP(=O)(O)OC[C@@H]1C=C[C@H](n2cc(C)c(=O)[nH]c2=O)O1)C(=O)O)OC,MTT,259 µM
Cc1cn([C@H]2C[C@H](N=[N+]=[N-])[C@@H](COC(=O)[C@@]3(O)CCC4C5CCC6=CC(=O)C=CC6(C)C5C(O)CC43C)O2)c(=O)[nH]c1=O,,>20 µM
CC(C)(C)[Si](C)(C)OC[C@H]1O[C@@H](n2cnc3c(=O)[nH]cnc32)[C@H](O[Si](C)(C)C(C)(C)C)C12OS(=O)(=O)C=C2N,,7.7 µg/mL
Cc1cn([C@@H]2O[C@H](CO)C=C2F)c(=O)[nH]c1=O,,9.7 µg/mL
Cc1cn([C@H]2C=C[C@@H](COP3(=O)OCc4cc(C=O)ccc4O3)O2)c(=O)[nH]c1=O,,113 µM
COc1ncnc2c1ncn2[C@@H]1O[C@H](CO[Si](C)(C)C(C)(C)C)C2(OS(=O)(=O)C=C2N)[C@H]1O[Si](C)(C)C(C)(C)C,,9.9 µg/mL
Cc1cn([C@@H]2O[C@H](CO[Si](C)(C)C(C)(C)C)[C@@H](O[Si](C)(C)C(C)(C)C)[C@H]2O)c(=O)n(CC(=O)ON)c1=O,,8.8 µM
CC1=NN(C(=O)c2ccc(Cl)cc2)C(=O)/C1=C/c1ccc(Cl)cc1,,>10 µM
COC(=O)CCn1c(=O)c(C)cn([C@@H]2O[C@H](CO[Si](C)(C)C(C)(C)C)[C@@H](O)[C@H]2O[Si](C)(C)C(C)(C)C)c1=O,,19 µM
Cc1cc(S(=O)(=O)Nc2nc(N)nc(N3N=CCC3C)n2)c(SCC(=O)O)cc1Cl,,>200 µM
COc1cccc2c1C(=O)c1c(O)c3c(c(O)c1C2=O)C[C@@](O)(C(=O)CO)C[C@@H]3O[C@H]1C[C@H](N(C)C)[C@H](O)[C@H](C)O1,,>0.2 µM
c1nc[nH]n1,MTT,>100 µg/mL
CN(C)C1C(=O)C(C(=O)NCNC(CO)(CO)CO)=C(O)C2(O)C(=O)C3=C(O)c4c(O)cccc4C(C)(O)C3CC12,,>133 µM
Cc1cc(SC2=C(O)C[C@@](CCc3ccc(N)cc3)(C(C)C)OC2=O)c(C(C)(C)C)cc1CO,,210 µM
NS(=O)(=O)c1ccc(Nc2c3ccccc3nc3c(C(=O)NC(CO)(CO)CO)cccc23)cc1,,>3.4 µM
COc1cc(C2C(Cl)C(=O)N2NC(=O)c2ccccc2O)ccc1O,,>27.5 µM
Cc1cn([C@H]2C[C@H](F)[C@@H](COP(=O)(O)O)O2)c(=S)[nH]c1=O,,>200 µM
CC(C)(C)[Si](C)(C)OC[C@H]1O[C@@H](n2ccc(=O)n(CC(=O)O)c2=O)[C@H](O)[C@@H]1O[Si](C)(C)C(C)(C)C,,63 µM
Cc1cc(S(=O)(=O)Nc2nnc3cc(C(F)(F)F)cc(C)n23)c(S)cc1Cl,,>200 µM
COc1cc(C2C(Cl)C(=O)N2NC(=O)c2ccccc2O)cc(OC)c1OC,,4.4 µM
Cc1cn([C@@H]2O[C@H](CO[Si](C)(C)C(C)(C)C)[C@]3(C(N)=CS(=O)(=O)N3C)[C@H]2O[Si](C)(C)C(C)(C)C)c(=O)[nH]c1=O,,21.6 µM
Nc1ccc(S(N)(=O)=O)cc1SSc1cc(S(N)(=O)=O)ccc1N,,>100 µM
OB(O)c1ccccc1/C=N/NC(=S)Nc1ccccc1,MTT,111 µM
CC(=O)Oc1cc(S(=O)(=O)Nc2n[nH]c(Nc3ccc(C)cc3)n2)c(S)cc1Cl,,>200 µM
Cc1cn([C@H]2C[C@H](F)[C@@H](CO)O2)c(=S)[nH]c1=O,,>200 µM
COc1ccc(B(O)O)cc1C=O,MTT,24 µM
O=C(NN1C(=O)C(Cl)C1c1ccc([N+](=O)[O-])cc1)c1ccccc1O,,>10 µM
CC(O)C(NCNC(=O)C1=C(O)C2(O)C(=O)C3=C(O)c4c(O)cccc4C(C)(O)C3CC2C(N(C)C)C1=O)C(=O)O,,>37 µM
Cc1cn([C@H]2C[C@H](N=C(N)n3cncn3)[C@@H](CO)O2)c(=O)[nH]c1=O,MTT,16 µg/mL
CC(C)(C)[Si](C)(C)OC[C@H]1O[C@@H](n2cnc3c(N)ncnc32)[C@H](O[Si](C)(C)C(C)(C)C)C12OS(=O)(=O)C=C2N,,5.5 µg/mL
Cc1cc(N[C@H](C)c2cccc3ccccc23)c(C(=O)C(Cl)Cl)c(=O)o1,MTT,6.5 µM
Nc1ncnc2c1ncn2CCOCP(=O)(O)O,MTT,40.5 µM
Cc1c(-c2cnccn2)ssc1=S,,>200 µM
CN(C)[C@H]1C(=O)C(C(=O)NCN2CCN(C(=N)N=C(N)N)CC2)=C(O)[C@]2(O)C(=O)C3=C(O)c4c(O)cccc4[C@](C)(O)[C@@H]3C[C@H]12,,>0.3 µM
COP(=O)(O)C[C@H](NP(=O)(O)OC[C@@H]1C=C[C@H](n2cc(C)c(=O)[nH]c2=O)O1)C(=O)O,MTT,266 µM
Nc1ccn([C@@H]2O[C@H](CO)C[C@@H]2F)c(=O)n1,,61.9 µg/mL
Nc1ncnc2c1ncn2[C@@H]1OC[C@](CO)(CCP(=O)(O)O)[C@@H]1F,MTT,44 µM
CCN(CCO)CCCC(C)Nc1ccnc2cc(Cl)ccc12,,>1000 µg/mL
Cc1cn([C@@H]2O[C@H](CO[Si](C)(C)C(C)(C)C)[C@@]3(NS(=O)(=O)C=C3N)[C@H]2O[Si](C)(C)C(C)(C)C)c(=O)n(C(=O)OC(C)(C)C)c1=O,,21.2 µM
Cc1cc(S(=O)(=O)Nc2nc(N)n(-c3ccccn3)n2)c(S)cc1Cl,,>200 µM
Cc1cn([C@H]2C=C[C@@H](CO)O2)c(=O)[nH]c1=O,,60 µM
OB(O)c1ccc(F)cc1,MTT,>250 µM
O=C(NN1C(=O)C(Cl)C1c1cccc(Cl)c1)c1ccccc1O,,>74 µM
CC1=NN(c2nc(N)nc(CSc3cc(Cl)c(C)cc3S(N)(=O)=O)n2)C(C)(C)C1,,75.3 µM
CN(C)c1ncnc2c1ncn2[C@@H]1O[C@H](CO[Si](C)(C)C(C)(C)C)C2(OS(=O)(=O)C=C2N)[C@H]1O[Si](C)(C)C(C)(C)C,,6.1 µg/mL
Cc1cc(N[C@@H](C)c2cccc3ccccc23)c(C(=O)C(Cl)Cl)c(=O)o1,MTT,4.2 µM
Cc1cn([C@@H]2O[C@H](CO[Si](C)(C)C(C)(C)C)[C@]3(C(N)=CS(=O)(=O)N3C)[C@H]2O[Si](C)(C)C(C)(C)C)c(=O)n(C)c1=O,,≥250 µM
CO[C@H]1/C=C/O[C@@]2(C)Oc3c(C)c(O)c4c(O)c(c(/C=N/N5C(C)CN(Cc6ccc([N+](=O)[O-])cc6)CC5C)c(O)c4c3C2=O)NC(=O)/C(C)=C\C=C\[C@H](C)[C@H](O)[C@@H](C)[C@@H](O)[C@@H](C)[C@H](OC(C)=O)[C@@H]1C,,>7.7 µM
CCOCn1c(Cc2ccccc2)c(C(C)C)c(=O)[nH]c1=O,,>100 µM
Cc1cc(NCc2ccccc2)c(C(=O)C(Cl)Cl)c(=O)o1,MTT,4.9 µM
Cc1cn([C@@H]2O[C@H](CO)C[C@@H]2F)c(=O)[nH]c1=O,,>25 µg/mL
Cc1cc(S(=O)(=O)CCc2cccc3ccccc23)c(Br)c(=O)o1,MTT,2.2 µM
Cc1cc(C(F)(F)F)cc(-n2nc(NS(=O)(=O)c3cc(C)c(Cl)cc3S)nc2N)n1,,149 µM
CCOCn1c(Cc2ccccc2)c(C(C)C)c(=O)n(C(=O)c2ccc(OP(=O)(OCCSC(=O)C(C)(C)C)OC[C@@H]3C=C[C@H](n4cc(C)c(=O)[nH]c4=O)O3)cc2)c1=O,,32 µM
Cc1cn([C@@H]2O[C@H](COC(=O)c3ccccc3)[C@@H](O)[C@H]2OC(=O)c2ccccc2)c(=O)n(CC(=O)O)c1=O,,194 µM
OB(O)c1ccc(Cl)cc1,MTT,>250 µM
Cc1cn([C@H]2C[C@H](N=[N+]=[N-])[C@@H](COC(=O)[C@H]3C(C#N)CC4C5CCC6=CC(=O)C=CC6(C)C5C(O)CC43C)O2)c(=O)[nH]c1=O,,>20 µM
CCCCCCCCCCCCCCCCCCOC[C@@H](O)COP(=O)(O)CC(=O)O,,68 µM
CCc1c(Cc2cc(C)cc(C)c2)n(COC/C=C/c2ccc(O)cc2)c(=O)[nH]c1=O,,32 µM